Anti-infective test results gathered from many reports (values: NIAID ChemDB through PubChem).

Common to all: tests on isolated targets; organism: Toxoplasma gondii

Percent inhibition refers to the dose given; in toxicity tests it is the harm to the cells. An empty or dashed field is not shown. Neighbouring rows are from separate reports. ICn is the concentration giving n% inhibition.

compound,strain,target,measure,dose,result
CN1Cc2[nH]cnc2N=C1N,RH,Phosphoribosyltransferase,Ki,,730 µM
O=C(O)c1cc(=O)[nH]c(=O)[nH]1,RH,Uracil phosphoribosyltransferase,inhibition,2000 µM,<5%
Cn1c(=O)[nH]c(=O)c2[nH]cnc21,RH,Phosphoribosyltransferase,inhibition,900 µM,<10%
O=c1cccc(O)[nH]1,RH,Uracil phosphoribosyltransferase,Ki,,200 µM
CSc1ccc(N2C(N)=NC(N)=NC2(C)C)cc1,RH,DHFR,IC50,,1.52 µM
O=c1ccn([C@@H]2O[C@H](CO)[C@@H](O)[C@H]2O)c(=O)[nH]1,RH,Uracil phosphoribosyltransferase,inhibition,2000 µM,<10%
O=c1[nH]c(=S)c2[nH]cnc2[nH]1,RH,Phosphoribosyltransferase,Ki,,318 µM
Nc1[nH]c(=S)[nH]c(=O)c1N=O,RH,Uracil phosphoribosyltransferase,inhibition,2000 µM,<5%
Nc1ccc(S(=O)(=O)Nc2cc(Br)cc(Br)c2)cc1,,DHPS,IC50,,26 µM
Nc1nc(N)c2nc(-c3ccccc3)c(N)nc2n1,RH,DHFR,IC50,,4.5 µM
O=c1cn[nH]c(=S)[nH]1,RH,Uracil phosphoribosyltransferase,IC50,,>2000 µM
Nc1ccc(S(=O)(=O)Nc2ccccn2)cc1,,DHPS,IC50,,1000 µM
Nc1nccc(=O)[nH]1,RH,Uracil phosphoribosyltransferase,inhibition,2000 µM,<5%
Nc1ncnc2nc[nH]c12,RH,Phosphoribosyltransferase,inhibition,900 µM,<10%
Nc1ccc(S(=O)(=O)Nc2cc(I)cc(I)c2)cc1,,DHPS,Ki,,2.5 µM
Nc1nc(N)c2c(ccc3ccc(Cl)cc32)n1,RH,DHFR,IC50,,0.011 µM
CNc1nc2nc[nH]c2c(=O)[nH]1,RH,Phosphoribosyltransferase,IC50,,>900 µM
Nc1ccc(-c2nc3nc(N)nc(N)c3nc2-c2ccc(N)cc2)cc1,RH,DHFR,IC50,,10.9 µM
Nc1nc(=S)c2[nH]cnc2[nH]1,RH,Phosphoribosyltransferase,Ki,,6 µM
c1ncncn1,RH,Uracil phosphoribosyltransferase,inhibition,2000 µM,<10%
Nc1nc2cc[nH]c2c(=O)[nH]1,RH,Phosphoribosyltransferase,Ki,,15 µM
CC1(C)N=C(N)N=C(N)N1c1ccc(C(=O)Nc2cccc(S(=O)(=O)F)c2)cc1.CCS(=O)(=O)O,RH,DHFR,IC50,,69 µM
Nc1ccc(S(=O)(=O)NC2CCC(O)CC2)cc1,,DHPS,inhibition,270 µM,94%
CC1(C)N=C(N)N=C(N)N1c1cccc(CC(=O)Nc2ccccc2)c1,RH,DHFR,IC50,,0.084 µM
O=c1cc(Cc2ccccc2)[nH]c(=S)[nH]1,RH,Uracil phosphoribosyltransferase,IC50,,>2000 µM
Nc1nccc(=O)[nH]1,RH,Phosphoribosyltransferase,Ki,,616 µM
Cc1c(CNc2ccc(C(=O)NC(CC(=O)O)C(=O)O)cc2)ccc2nc(N)nc(N)c12,RH,DHFR,IC50,,0.00133 µM